Experimental data reported in the supplement of paper PMC12637763.
The list shows a part of the results. Env chains of viruses from a treatment-interruption trial, translated from the printed DNA. IC50 / IC80 of two broadly neutralizing antibodies; lower = more sensitive virus; >50 µg/ml means not reached and <0.001 µg/ml is below the lowest dose. No active / inactive call.

B1: HIV-1 Env, reservoir clone (protein)
chain: MKVKGTRMNWQHLWRWGTLMLGLVIICNASNTNLWVTVYYGVPAWEDADTTLFCASDAKAYSTEKHNVWATHACVPTDPNPQEISLPNVTENFDMWKNNMVEQMHEDIISLWDESLKPCVKLTPLCVTLTCSDINITNSSNTTTTNGNNSMVDPEEIKNCTFNMTTEIIDKKKEEYALFYKLDIVQINNGNDSKDYRLINCNVSTIKQACPKVSFEPIPIHYCAPAGFAILKCKDKNFNGTGPCKNVSTVQCTHGIKPVVSTQLLLNGSLAEEDIVIRTKNITDNGNNIIVHLNESITINCTRPNNNTRKSIHLGQGQAFYATGAIIGDIRQAHCNVSGSQWINTIKRVAGKLKGVFSKNVTFNSSAGGDLEITTHSFNCGGEFFYCNTSNLFNSSILTSNNTNENITLPCKIRQIVRMWQTVGQAMYAPPIAGSIICTSNITGLILTRDGGSNETNGTDTFRPGGGNMKDNWRSELYKYKVVKIKPLGIAPTKARRRVVGREKRAIGVLGAALLGFLGTAGSTMGAASITLTVQVRQLLSGIVQQQSNLLRAIEAQQHLLQLTVWGIKQLQARVLAVERYLRDQQLLGIWGCSGKLICTTNVPWNASWSNKSYEEIWDNMTWIQWDREIDNYTQLIYSLIEESQNQQEKNEQDLLALDKWTSLWSWFDISNWLWYIRIFIIIVGGLIGLRIVFAVLSIVNRVRQGYSPLSLQTLLPHPPEADRPGEIEEGGGEQGRTRSIRLVNGFLALAWDDLRNLCLFLYHHLRDFILTAARTVETLGHRGWEILKYLGNLLCYWGQELQNSVISLLDTTAIAVGNWTDRFIELGQRVVRAVLHIPRRIRQRLERALL
B2: HIV-1 Env, reservoir clone (protein)
chain: MKVKGTRMNWQHLWRWGTLMLGLVIICNASNTNLWVTVYYGVPAWEDADTTLFCASDAKAYSTEKHNVWATHACVPTDPNPQEISLPNVTENFDMWKNNMVEQMHEDIISLWDESLKPCVKLTPLCVTLTCSDINITHSSNTTTTNGNNSMVDPEEIKNCTFNMTTEIIDKTKKEYALFYKLDIVQINNGNDSKNYRLINCNVSTIKQACPKVSFEPIPIHYCAPAGFAILKCKDKNFNGTGPCKNVSTVQCTHGIKPVVSTQLLLNGSLAEEDIVIRTKNITDNGNNIIVHLNESITINCTRPNNNTRKSIHLGQGQAFYATGAIIGDIRQAHCNVSGSQWINMIKRVAGKLKGVFSKNVTFNSSAGGDLEITTHSFNCGGEFFYCNTSNLFNSSILTSNNTNENITLPCKIRQIVRMWQTVGQAMYAPPIAGSIICTSNITGLILTRDGGSNKTNGTDTFRPGGGNMKDNWRSELYKYKVVKIKPLGIAPTKARRRVVGREKRAIGVLGAALLGFLGTAGSTMGAASITLTVQVRQLLSGIVQQQSNLLRAIEAQQHLLQLTVWGIKQLQARVLAVERYLRDQQLLGIWGCSGKLICTTNVPWNASWSNKSYEEIWDNMTWIQWDREIDNYTQLIYSLIEESQNQQEKNEQDLLALDKWTSLWSWFDISNWLWYIRIFIIIVGGLIGLRIVFAVLSIVNRVRQGYSPLSLQTLLPHPPEADRPGEIEEGGGEQGRTRSIRLVNGFLALAWDDLRNLCLFLYHHLRDFILTAARTVETLGHRGWEILKYLGNLLCYWGQELKNSVINLLDTTAIAVGNWTDRFIELGQRVVRAVLHIPRRIRQGLERAWL
B3: HIV-1 Env, reservoir clone (protein)
chain: MKVKGTRMNWQHLWRWGTLMLGLVIICNASNTNLWVTVYYGVPAWEDADTTLFCASDAKAYSTEKHNVWATHACVPTDPNPQEISLPNVTENFDMWKNNMVEQMHEDIISLWDESLKPCVKLTPLCVTLTCSDINITNSSNTTTTNGNNSMVDPEEIKNCTFNMTTEIIDKKKKEYALFYKLDIVQINNGNDSKDYRLINCNVSTIKQACPKVSFEPIPIHYCAPAGFAILKCKDKNFNGTGPCKNVSTVQCTHGIKPVVSTQLLLNGSLAEEDIVIRTKNITDNGNNIIVHLNESITINCTRPNNNTRKSIHLGQGQAFYATGAIIGDIRQAHCNVSGSQWINMIKRVAGKLKGVFSKNVTFNSSAGGDLEITTHSFNCGGEFFYCNTSNLFNSSILTSNNTNENITLPCKIRQIVRMWQTVGQAMYAPPIAGSIICTSNITGLILTRDGGSNETNGTDTFRPGGGNMKDNWRSELYKYKVVKIKPLGIAPTKARRRVVGREKRAIGVLGAALLGFLGTAGSTMGAASITLTVQVRQLLSGIVQQQSNLLRAIEAQQHLLQLTVWGIKQLQARVLAVERYLRDQQLLGIWGCSGKLICTTNVPWNASWSNKSYEEIWDNMTWIQWDREIDNYTQLIYSLIEESQNQQEKNEQDLLALDKWTSLWSWFDISNWLWYIRIFIIIVGGLIGLRIVFAVLSIVNRVRQGYSPLSLQTLLPHPPEADRPGEIEEGGGEQGRTRSIRLVNGFLALAWDDLRNLCLFLYHHLRDFILTAARTVETLGHRGWEILKYLGNLLCYWGQELKNSVISLLDTTAIAVGNWTDRFIELGQRVVRAVLHIPRRIRQGLERALL
B4: HIV-1 Env, reservoir clone (protein)
chain: MRVKGIRKSYQPLWVGGILLLGMLMLCSTTEQLWVTVYYGVPVWKEATTTLFCASDAKGYDTEAHNVWATHACVPTDPNPQELKLENVTENFNMWKNDMVQQMHEDIISLWDQSIKPCVKLTPLCVTLNCSGVNINNTNANTTSNNTSWREMKEEIKNCSFNHTDTRNKMRKDYALFNSLDVIQIDSSDNNTSYMLESCNTSVITQACPKISFEPIPIHYCAPAGFAILKCNDKNFNGTGPCKNVSLVQCTHGIKPVVSTQLLLNGSLAEEDIVIRSENFTNNAKTIIVQLNSSIEITCIRPNNNTRKSIHLGPGAAFYATGDIIGDIRKAYCNISKVKWENTLDKIAKKLQGQFGENKTIVFNHSSGGDPEIVHHSFNCGGEFFYCNTTKLFSWNSTGHGNNASKNSNVNITLTCRIKQIINRWQQVGRAIYAPPIRGSISCSSTITGLLLTRDGGDSNSTDNNTETFRPGGGDMRDNWRSELYKYKVVSIEPLGIAPTRARRRVVQREKRAVGMIGAMFLGFLGAAGSTMGAASVALTVQARQLLSGIVQQQNNLLRAIEAQQHMLQLTVWGIKQLQARVLAVERYLKDQQLLGIWGCSGKLICTTNVPWNISWSNRNLKDIWGNMTWMQWEREIDNYTGLIYSLLTESQTQQEQNEKELLELDKWASLWNWFDISNWLWYIKIFIMIVGGLVGLRIIFTILNVVNRVRKGYSPLSFQTRLPATRGPDRPEETEEEGGGRDRGRSETLVTGFLALIWDDLRSLCLFIYHRLRDLLLIATRSVELLGRRGWELLKYLWNLLQYWGQELRNSAVSLLNATAIAVAEGTDRIIEVAQRIGRAIIHIPRRIRQGAERALL
B5: HIV-1 Env, reservoir clone (protein)
chain: MKVRGTKMNWQHLWWRWGTMLLGMLMICKATEEKWVTVYYGVPVWKEATTTLFCASDAKAYEKEAHNVWATHACVPTDPSPQEVVLENVTENFNMWKNNMVEQMHEDIISLWDQSLKPCVKLTPLCVTLNCTDYTNSNSTNHTNSNSSSPTPTAGGEIKNCSFNITTNIRDKIKKEHALFYSLDVVQIDINDNTSYRLISCNTSVITQACPKTTFEPIPIYYCAPAGFAILKCNNKTFDGKGPCKNVSTVQCTHGIRPVVSTQLLLNGSLAEKEIVIRSDNFSDNTKNIIVQLKDPVVINCTRPNNNTRKGIHIGPGRAFYATGKVIGDIRQAYCNISKEEWNKTLGQIVKKLGAQFGNKTTMIFNQSSGGDPEIVTHSFNCGGEFFYCNTSALFNSTWSSNDGNGTWNKTNSTETNSTEIILQCRIKQIVNMWQEVGKAMYAPPIKGPIRCSSNITGLILTRDGGNNTGNNSETFRPAGGNMRDNWRSELYKYKIVKIEPLGIAPTKAKRRTVQREKRAVTMGAMFLGFLGAAGSTMGAASLTLTVQARQLLSGIVQQQNNLLRAIEAQQHLLQLTVWGIKQLQARVLAVERYLADQRFLGIWGCSGKLICTTTVPWNNSWSNKSLDSIWNNMTWMQWEKEIENYTGEIYNLIEQAQNQQEQNERELLELDKWASLWNWFDISNWLWYIKIFIMIVGGLIGLRIVFAVLSIVNRVRQGYSPLSLQTLLPTPRGPDRPEGIEGEGGERDRDTSIRLVDGFLALFWDDLRNLCLFSYRHLRDLLLIAARIVELLGLRGWEILKYLWNLLLYWSQELKNSAISLLDATAIAVAEGTDRIIEAVRRFCRGVLHIPRRIRQGFERALQ
B6: HIV-1 Env, reservoir clone (protein)
chain: MRVKGIRRNYQHWWRGDIWRWGMMLLGMLMICSATGSLWVTVYYGVPVWKEATTTLFCASDAKAYDTEAHNVWATHACVPTDPNPQEVPLVNVTENFNMWKNNMVEQMHEDIISLWDQSLKPCVKLTPLCVTLHCTEIGTNATNNSSHNPTPTTNSSTSPTPMGEIKNCSFNVTTNRRDKVQKTYAFFYNMDIKQIAEEDNTSYILTSCNTSVITQACPKVSFEPIPIHYCAPAGFAILKCNDTNFNGTGPCKNVTTVQCTHGIKPVVSTQLLLNGSLARGEVMIRSENISNNAKIIIVQLKEPVEINCTRPNNNTRKSITIGPGRAFFGTDIIGDIRQAHCNISREKWNYTLYQISEKLRSHFVNKTIVFNQSSGGDPEIVMHSFNCGGEFFYCDTSKLFNSTWHTNSTANNTGDSSTITLPCRIKQIVNMWQEVGKAMYAPPIKGPIRCSSKITGVLLTRDGGTNNTNTTETFRPAGGDMRDNWRSELYKYKVVQIEPLGIAPTQAKRRVVQRDKRAVGIGALFLGFLGTAGSTMGAASITLTVQARNLLSGIVQQQNNLLRAIEAQQHLLQLTVWGIKQLQARVLAVESYLKDQQLLGIWGCSGKLICTTAVPWNNSWSNKSLDYIWNNMTWMEWEREIDNYTEYIYDLLEASQNQQEKNEQELLALDKWASLWSWFSITQWLWYIKLFLIIVGGLIGLRIVFAVFSIVNRVRQGYSPLSLQTLLPAQRGPDRPEGIEEEDGEQDRGRSIRLVDGFLALFWDDLRSLCLFSYHRLRDLLLIVTRIVELLGRRGWETLKYCWNLLQYWGQELKKSAVSLFNFSAIAVAEGTDRVIEVVQRIWRAIIHIPRRIRQGLEGALL

What follows are binders tested against antibody 10-1074 (assay: neutralization IC50; higher = virus less sensitive to the antibody).
Procedure: (§1)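 Pseudovirus bearing the Env chain mixed with antibody, from 50 µg/ml in fivefold dilutions, on TZM-bl reporter cells, in duplicate.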

Row | Binder | neutralization IC50
1 | B1 | 0.007 µg/mL
2 | B2 | 0.014 µg/mL
3 | B3 | 0.009 µg/mL
4 | B4 | 0.007 µg/mL
5 | B5 | 0.005 µg/mL
6 | B6 | 0.001 µg/mL

The binders below were run against antibody 3BNC117 in the same assay as above.
Procedure: as §1

Row | Binder | neutralization IC50
7 | B1 | 0.298 µg/mL
8 | B2 | 0.101 µg/mL
9 | B3 | 0.335 µg/mL
10 | B4 | 0.087 µg/mL
11 | B5 | 0.101 µg/mL
12 | B6 | 0.023 µg/mL

The binders below were run against antibody 10-1074 (assay: neutralization IC80; higher = virus less sensitive to the antibody).
Procedure: as §1

Row | Binder | neutralization IC80
13 | B1 | 0.036 µg/mL
14 | B2 | 0.043 µg/mL
15 | B3 | 0.028 µg/mL
16 | B4 | 0.021 µg/mL
17 | B5 | 0.018 µg/mL
18 | B6 | 0.008 µg/mL

These binders were tested against antibody 3BNC117 in the same assay as above.
Procedure: as §1

Row | Binder | neutralization IC80
19 | B1 | 1.16 µg/mL
20 | B2 | 0.437 µg/mL
21 | B3 | 2.13 µg/mL
22 | B4 | 0.337 µg/mL
23 | B5 | 0.355 µg/mL
24 | B6 | 0.097 µg/mL
